Results of unrelated studies side by side (data: NIAID ChemDB).

All rows: tests in culture; organism: Influenza A virus; measure: EC50

a–b is a range or a potency band.

compound	strain or isolate	method	cell line	value
C[C@H]1CC[C@H]2C(C)(C)[C@H](O)CC[C@]23Oc2c(c(O)cc4c2CNC4=O)C[C@]13C	H1N1 A/WSN/33	-	MDBK	0.012 µM
CCC	PORT chalmers/1/73 (H3)	-	MDCK	>500 µM
[O-][n+]1onc2c(N3CC[N+]4(CC3)CC[N+]3(CCN(c5ncnc6no[n+]([O-])c56)CC3)CC4)ncnc21	-	cytopathic effect	MDCK	>70 µg/mL
CCCOc1nc2c(nc(N)n2[C@@H]2O[C@H](CO)[C@@H](O)[C@H]2F)c(=O)[nH]1	A/Sweden	plaque count	MDCK	36 µM
Nc1ncnc2c1ccn2[C@@H]1C[C@H](O)[C@@H](O)[C@H]1O	Influenza A/Ishikawa/222/82 (H3N2)	-	MDCK	>100 µg/mL
CC(C)=CCc1c(O)cc(O)c(C(=O)/C=C/c2ccccc2)c1O	Panama	-	-	100 µg/mL
CCN(CC)C(=S)Sc1ncnc(N2CC[N+]3(CC2)CC[N+]2(CCN(c4ncnc(SC(=S)N(CC)CC)c4[N+](=O)[O-])CC2)CC3)c1[N+](=O)[O-]	-	cytopathic effect	MDCK	>70 µg/mL
CC(C)C1CC(CO)(CNc2nc(N)nc(Cl)c2C=O)C1	H1N1 A/PR/8/34	plaque count	MDCK	10–20 µM
CCC(CC)[C@H](NC(C)=O)[C@@H]1C[C@@H](C(=O)O)C[C@H]1N=C(N)N	Influenza A/Washington/897/80 (H3N2)	-	MDCK	<0.01 µM
Cc1cc(NCCCCCCCCNc2cc(C)nc3cc(N(C)C)ccc23)c2ccc(N(C)C)cc2n1	Influenza A/Ishikawa/7/82 (H3N2)	cytopathic effect	MDCK	>500 µg/mL
CNc1ncc2ncn([C@@H]3O[C@H](CO)[C@@H](O)[C@H]3F)c2n1	Recombinant A/X31	virus yield	CEF	0.9 µM
CN(CC1(CO)CCC1)c1cc(Cl)nc(N)n1	H1N1 A/PR/8/34	plaque count	MDCK	>120 µM
[N-]=C=Nc1nncs1	Influenza A/Virginia/88 (H3N2)	virus yield	MDCK	<1 µg/mL
CC(=O)O[C@H]1CC[C@@]23Oc4c(c(O)c(Cl)c5c4CNC5=O)C[C@]2(C)[C@@H](C)CC[C@H]3C1(C)C	H1N1 A/WSN/33	-	MDBK	3.5 µM
Cc1nc(N2CCCC2)c([N+](=O)[O-])c(N2CC[N+]3(CC2)CC[N+]2(CCN(c4nc(C)nc(N5CCCC5)c4[N+](=O)[O-])CC2)CC3)n1	-	cytopathic effect	MDCK	>70 µg/mL
Nc1nc2c(ncn2[C@@H]2O[C@H](CO)[C@@H](O)[C@H]2F)c(=O)[nH]1	A/Sweden	plaque count	MDCK	18.02 µM
Nc1nc(Cl)cc(NCC2(CO)CCC2)n1	H1N1 A/PR/8/34	plaque count	MDCK	82–140 µM
Nc1ncnc2c1ncn2[C@@H]1O[C@H](CO)[C@@H](O)[C@H]1F	Recombinant A/X31	virus yield	CEF	1.8 µM
CCOC(=O)c1ccc(OC(=O)CCCCCN=C(N)N)cc1.COS(=O)(=O)O	Influenza A/Ishikawa/7/82 (H3N2)	cytopathic effect	MDCK	230 µg/mL
Cc1ccc(C2NC(=O)C3NC(=O)C(c4cc(O)cc(O)c4)NC(=O)C(NC(=O)C(N)Cc4ccc(O)cc4)Cc4c[nH]c5cc(ccc45)-c4cc3cc(c4O)Oc3ccc(cc3)CC(C(=O)NC(C(=O)O)c3ccc(O)c(O)c3)NC2=O)cc1Cl	A/Victoria	-	MDCK	3.6 µg/mL
Nc1nc2c(nc(N)n2[C@@H]2O[C@H](CO)[C@@H](O)[C@H]2F)c(=O)[nH]1	Recombinant A/X31	virus yield	CEF	0.2 µM
C[C@H]1CC[C@H]2C(C)(C)[C@@H](O)CC[C@]23Oc2c(c(O)cc4c2CNC4=O)C[C@]13C	H1N1 A/WSN/33	-	MDBK	0.003 µM
CC(CC(=O)CC(C)(O)C1=C[C@@H](O)[C@@]2(C)C34OC3C[C@H]3C(C)(C)C(=O)CC[C@]3(C)C4=CC(=O)[C@]12C)C(=O)O	-	-	MDCK	190 µM
C[C@H]1CC[C@H]2C(C)(C)[C@@H](O)CC[C@]23Oc2c(c(OCc4ccccc4)cc4c2CNC4=O)C[C@]13C	H1N1 A/WSN/33	-	MDBK	0.51 µM
CCC(CC)O[C@@H]1C=C(C(=O)O)C[C@H](N)[C@H]1NC(C)=O	Influenza A H3N2 isolate C25C	plaque count	MDCK	≤0.015 µg/mL
CC(=O)N[C@H]1[C@H]([C@H](O)[C@H](O)CO)OC(C(=O)O)=C[C@@H]1N=C(N)N	H1N1 A/TEXAS/36/91	plaque count	MDCK	0.07 µM
C1=CCC2(CC1)COC(c1ccco1)OC2	Influenza A/Ishikawa/7/82 (H3N2)	cytopathic effect	MDCK	>500 µg/mL
O=[N+]([O-])c1cncnc1N1CC[N+]2(CC1)CC[N+]1(CCN(c3ncncc3[N+](=O)[O-])CC1)CC2	-	cytopathic effect	MDCK	>70 µg/mL
CCCC(CCC)C(NC(C)=O)C1CC(C(=O)O)CC1N=C(N)N	Influenza A/Virginia/2/88R (H3N2)	-	MDCK	0.05 µM
CC(N)C12CC3CC(CC(C3)C1)C2	H3N2 10 french isolates	ELISA	MDCK	9.3 µg/mL
CC(=O)N[C@H]1[C@H]([C@H](O)[C@H](O)CO)OC(C(=O)O)=C[C@@H]1N=C(N)N	H3N2 A/AICHI/1168	virus yield	MDCK	0.06 µM
Nc1nc(Cl)cc(NCC2(CO)CC(CCCc3ccccc3)C2)n1	H1N1 A/PR/8/34	plaque count	MDCK	0.083–0.19 µM
O=C(NCCCl)N1CC[N+]2(CC1)CC[N+]1(CCN(C(=O)NCCCl)CC1)CC2	-	cytopathic effect	MDCK	>70 µg/mL
CC(=O)N[C@H]1[C@H]([C@H](O)[C@H](O)CO)OC(C(=O)O)=C[C@@H]1N=C(N)N	Influenza A/Sydney/05/97 (H3N2)	neutral red	MDCK	0.078 µM
Nc1cc(Cl)nc(N)n1	H1N1 A/PR/8/34	plaque count	MDCK	>690 µM
CCC(CC)O[C@@H]1C=C(C(=O)O)C[C@H](N)[C@H]1NC(C)=O	Influenza A/Washington/05/96 (H3N2)	-	MDCK	0.08 µM
O=c1[nH]cnc2c1ncn2[C@@H]1O[C@H](CO)[C@@H](O)[C@H]1F	Recombinant A/X31	virus yield	CEF	1.4 µM

An empty or dashed field is not shown. Neighbouring rows are from separate reports. ECn: concentration that inhibits the pathogen or its effect by n%.